PubChem BioAssay AID624099 – ICCB-Longwood – 2012

Test: 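Knock-downs relieving repression by E2 of an HPV18 LCR luciferase reporter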 (primary screen)
Cell system: human C33A cervical carcinoma cells (HPV-negative) stably expressing BPV1 E2 and an HPV18 LCR luciferase reporter
Reagent: siRNA pool against human genes, 40 nM
Duration: 72 h
Detection: 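Per-well luciferase luminescence, z-scored on each plate against the plate mean and SD with control wells left out, then averaged across three replicate plates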
Scale: mean z-score and z-score: higher = stronger reporter signal, weaker E2 silencing
Call rule: 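Hit if mean z-score reaches 2 and two or more of three replicate z-scores also reach 2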
This is an unselected part of about 21,000 deposited reagents. 497 of all reagents (2.4%) were called active. 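Higher z means weaker E2 silencing; only reporter increases were scored, and knock-downs that hurt cell survival may mask genuine repressor factors.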 Reagent sequences are not shown.

| gene symbol | mean z-score | z-score, replicate A | z-score, replicate B | z-score, replicate C | Outcome |
| --- | --- | --- | --- | --- | --- |
| PDIA3 (GeneID 2923) | -0.22 | -0.16 | -0.47 | -0.02 | inactive |
| LACTB2 (GeneID 51110) | 0.62 | 0.14 | 0.75 | 0.97 | inactive |
| COG8 (GeneID 84342) | -0.01 | -0.02 | 0.09 | -0.11 | inactive |
| METTL21C (GeneID 196541) | 0.98 | 1.53 | 0.58 | 0.84 | inactive |
| DDHD1 (GeneID 80821) | -0.93 | -0.79 | -1.09 | -0.9 | inactive |
| SENP8 (GeneID 123228) | 0.47 | 0.32 | 0.4 | 0.68 | inactive |
| H2BC12 (GeneID 85236) | 0.68 | 0.65 | 0.65 | 0.75 | inactive |
| LOC401352 (retired record) (GeneID 401352) | -0.27 | -0.29 | -0.32 | -0.19 | inactive |
| SLC24A3 (GeneID 57419) | 0.08 | 0.26 | -0.26 | 0.25 | inactive |
| LINC02693 (GeneID 339263) | 0.94 | 0.92 | 0.72 | 1.19 | inactive |
| PLPPR4 (GeneID 9890) | -0.31 | -0.3 | -0.44 | -0.19 | inactive |
| LOC400622 (GeneID 400622) | 0.94 | 0.83 | 1.17 | 0.82 | inactive |
| SLC60A1 (GeneID 148808) | -0.43 | -0.5 | 0 | -0.78 | inactive |
| CNR2 (GeneID 1269) | -0.67 | -0.56 | -0.93 | -0.52 | inactive |
| SCG5 (GeneID 6447) | 0.77 | 1.22 | 0.73 | 0.37 | inactive |
| SSU72L2 (GeneID 390031) | 0.36 | 0.47 | 0.34 | 0.27 | inactive |
| TMEM204 (GeneID 79652) | 0 | 0.4 | -0.17 | -0.21 | inactive |
| PIK3C3 (GeneID 5289) | -0.03 | -0.47 | 0.08 | 0.31 | inactive |
| STK10 (GeneID 6793) | -1.25 | -0.76 | -1.64 | -1.36 | inactive |
| MAT2B (GeneID 27430) | 0.65 | 0.76 | 0.37 | 0.84 | inactive |

Reformatted: results already given.
{"gene symbol": "PLPPR4 (GeneID 9890)", "mean z-score": -0.31, "z-score, replicate A": -0.3, "z-score, replicate B": -0.44, "z-score, replicate C": -0.19, "Outcome": "inactive"}
{"gene symbol": "LOC400622 (GeneID 400622)", "mean z-score": 0.94, "z-score, replicate A": 0.83, "z-score, replicate B": 1.17, "z-score, replicate C": 0.82, "Outcome": "inactive"}
{"gene symbol": "SLC60A1 (GeneID 148808)", "mean z-score": -0.43, "z-score, replicate A": -0.5, "z-score, replicate B": 0, "z-score, replicate C": -0.78, "Outcome": "inactive"}

The listing continues.
| gene symbol | mean z-score | z-score, replicate A | z-score, replicate B | z-score, replicate C | Outcome |
| --- | --- | --- | --- | --- | --- |
| GPCPD1 (GeneID 56261) | 1.3 | 0.77 | 1.44 | 1.68 | inactive |
| EMP3 (GeneID 2014) | 0.33 | 0.86 | 0.17 | -0.06 | inactive |
| ARID3A (GeneID 1820) | -0.82 | -0.55 | -0.92 | -0.97 | inactive |
| ZDHHC17 (GeneID 23390) | 0.66 | 0.28 | 0.95 | 0.74 | inactive |
| NUP210 (GeneID 23225) | 0.27 | 0.32 | 0.3 | 0.2 | inactive |
| MS4A7 (GeneID 58475) | -0.62 | -0.71 | -0.58 | -0.57 | inactive |
| PLAG1 (GeneID 5324) | 0.62 | 0.41 | 0.56 | 0.88 | inactive |
| IFNLR1 (GeneID 163702) | -0.11 | -0.16 | -0.28 | 0.11 | inactive |
| GSDMB (GeneID 55876) | -0.98 | -1.32 | -1.05 | -0.56 | inactive |
| LEPROT (GeneID 54741) | -1.38 | -1.29 | -1.38 | -1.48 | inactive |
| AOX1 (GeneID 316) | -1.19 | -1.23 | -1.15 | -1.2 | inactive |
| IGFALS (GeneID 3483) | -0.38 | -0.21 | -0.5 | -0.44 | inactive |
| APOOL (GeneID 139322) | 2.37 | 2.39 | 2.38 | 2.35 | active |
| FAM78B (GeneID 149297) | 0.66 | 0.66 | 0.92 | 0.4 | inactive |
| TM9SF2 (GeneID 9375) | -0.85 | -0.64 | -0.96 | -0.94 | inactive |
| H2AC8 (GeneID 3012) | 0.22 | 0.54 | 0.16 | -0.04 | inactive |
| LOC389764 (retired record) (GeneID 389764) | 0.39 | 0.65 | 0.08 | 0.43 | inactive |
| PALS2 (GeneID 51678) | -1.32 | -1.17 | -1.06 | -1.72 | inactive |
| SPCS2P1 (GeneID 100131250) | 0.52 | -0.15 | 0.71 | 0.99 | inactive |
